Measured values from several laboratories, pooled; numbers as filed in NIAID ChemDB.

Shared fields: growth or infection tests; species: HIV-1

Two numbers with a dash give a range or band. Conditions beyond the fields shown may differ between rows. Blank or dashed fields: not listed here. ECn is the concentration giving n% inhibition of infection, replication or growth.

smiles,read-out,conditions,read by,changes,cells,strain or isolate,result
Nc1ncnc2c1ncn2CCOCP(=O)(O)O,EC50,-,p24,RT-K65R,MT-2,K65R(RT-K65R),0.4 µM
CC(C)(C)NC(=O)[C@@H]1C[C@@H]2CCCC[C@@H]2CN1C[C@@H](O)[C@H](Cc1ccccc1)NC(=O)[C@H](CC(N)=O)NC(=O)c1ccc2ccccc2n1,EC50,-,p24,PR-L63P V82T,MT-4,NL4-3,<0.025 µM
Cc1ccnc2c1NC(=O)c1cccnc1N2C1CC1,EC50,-,cytopathic effect / XTT,RT-P236L,CEM + CEM-SS,HEPT-resistant (RT P236L),0.02 µM
CCCc1cc(=O)oc2c3c(c4c(c12)OC(C)(C)C=C4)O[C@@H](C)[C@H](C)[C@@H]3O,EC50,-,XTT,-,AA5,IIIB,1.4 µM
Cn1c2ccccc2c2c1cc(C#N)c(=O)n2-c1ccc([N+](=O)[O-])cc1,EC50,-,luciferase,RT-V118I M184V,HeLa,Recombinant,0.189 µM
Cc1cc(C#Cc2cccc(N)c2)cc(C)c1Oc1ccnc(NC2CCN(Cc3cccc(C(N)=O)c3)CC2)n1,EC50,-,MTT,F227L + RES056,MT-4,IIIB,≥0.163 µM
CCc1c(Sc2ccccn2)n(COCc2ccccc2)c(=O)[nH]c1=O,EC50,-,cytopathic effect / XTT,RT-Y181C,CEM + CEM-SS,UC040-R (RT-Y181C),2.2 µM
CC(C)Nc1cccnc1N1CCN(C(=O)c2cc3cc(NS(C)(=O)=O)ccc3[nH]2)CC1,EC50,-,p24,-,PBMC,477 clinical isolates delavirdine-resistant,<6.7 µM
CCc1c(Sc2ccccn2)n(COCc2ccccc2)c(=O)[nH]c1=O,EC50,-,cytopathic effect / XTT,RT-D67N K70R T215Y K219Q,CEM + CEM-SS,4xAZT(RT-D67N K70R T215Y K219Q),0.008 µM
Cc1cn([C@H]2C[C@H](N=[N+]=[N-])[C@@H](CO)O2)c(=O)[nH]c1=O,EC50,-,p24,RT-A62V V75I F77L F116Y Q151M,MT-2,RT A62V/V75I/F77L/F116Y/Q151M,2.1 µM
Cc1cn([C@H]2C[C@H](N=[N+]=[N-])[C@@H](CO)O2)c(=O)[nH]c1=O,EC50,-,-,RT-A98G V106I Y181C,PBMC,BCF02,<0.01 µM
Nc1ccn([C@H]2CC[C@@H](CO)O2)c(=O)n1,EC50,-,p24,RT-P119S V179D L214F,MT-2,RT P119S V179D L214F,0.85 µM
Cc1ccnc2c1NC(=O)c1cccnc1N2C1CC1,EC50,-,-,RT-A98G K103R,PBMC,BCF11,0.59 µM
Nc1ncnc2c1ncn2CCOCP(=O)(O)O,EC50,-,syncytia,-,CEM,IIIB,11 µM
Cc1c(Sc2ccccc2)n(COCCO)c(=O)[nH]c1=O,EC50,-,cytopathic effect / XTT,RT-P236L,CEM + CEM-SS,IIIB HEPT-resistant (RT P236L),>325 µM
CC[C@@H](C)[C@H](C(=O)O)N1C[C@H](CN2CCC(c3cc(Cc4ccc(OCc5ccccc5)cc4)nn3CC)CC2)[C@@H](c2cccc(F)c2)C1,EC50,-,β-galactosidase,-,HeLa,BaL,<0.0037 µM
CCc1c(Sc2ccccn2)n(COCc2ccccc2)c(=O)[nH]c1=O,EC50,-,XTT,-,CEM + CEM-SS,IIIB,0.04 µM
Cc1ccnc2c1NC(=O)c1cccnc1N2C1CC1,EC50,-,β-galactosidase,RT-P225H,MAGI,NNRTI-resistant (RT P225H),1.2 µM
CC[C@H](C)[C@H](C(=O)O)N1C[C@H](CN2CCC(c3cc(Cc4cccc5ccccc45)nn3CC)CC2)[C@@H](c2cccc(F)c2)C1,EC90,-,β-galactosidase,-,HeLa,BaL,<0.00014 µM
Cc1cccc(C)c1Oc1ccnc(Nc2ccc(C#N)cc2)n1,EC50,-,MTT,Y181C,MT-4,IIIB,0.06 µM
CCN(c1nc(F)ccc1NC(C)(C)C)C1CCN(C(=O)c2cc3cc(NC(=O)N4CCN(C)CC4)ccc3[nH]2)CC1,EC50,-,ATP,8374-P47 GS-8374-resistant,MT-2,IIIB,0.0195 µM
O=C1N(Cc2ccc(CO)cc2)[C@H](Cc2ccccc2)[C@H](O)[C@@H](O)[C@@H](Cc2ccccc2)N1Cc1ccc(CO)cc1,EC50,-,p24,-,PBMC,A012D POST AZT,0.07 µM
CCn1nc(Cc2ccc(O)cc2)cc1C1CCN(C[C@H]2CN([C@@H](C(=O)O)C3CCCCC3)C[C@@H]2c2cccc(F)c2)CC1,EC50,50% human serum,β-galactosidase,-,HeLa,BaL,<0.033 µM
Cc1ccnc2c1NC(=O)c1cccnc1N2C1CC1,EC50,-,ELISA,74V,C8166,Clinical isolate,0.039 µM
CCn1nc(Cc2ccc(S(=O)(=O)c3ccccc3)cc2)cc1C1CCN(C[C@H]2CN([C@@H](C(=O)O)C(C)C)C[C@@H]2c2cccc(F)c2)CC1,EC50,50% human serum,β-galactosidase,-,HeLa,BaL,<0.033 µM
Cc1cc(C#Cc2ccccc2)cc(C)c1Oc1ccnc(Nc2ccc(C#N)cc2)n1,EC50,-,MTT,-,MT-4,IIIB,0.038 µM
Cc1ccc(-c2ccc3c(c2)C=C(C(=O)Nc2ccc(C[N+](C)(C)C4CCOCC4)cc2)CCC3)cc1,EC50,-,antigen,-,PBMC,BAL R5,>1 µg/mL
Cc1ccnc2c1NC(=O)c1cccnc1N2C1CC1,EC50,-,cytopathic effect / XTT,RT-V108I,CEM + CEM-SS,NL4-3,0.06 µM
CC[C@H](C)[C@H](C(=O)O)N1C[C@H](CN2CCC(c3cc(Cc4ccc(-c5ccccc5)cc4)nn3CC)CC2)[C@@H](c2cccc(F)c2)C1,EC50,50% human serum,β-galactosidase,-,HeLa,BaL,<0.033 µM
CC(C)OC(=O)OCOP(=O)(CO[C@H](C)Cn1cnc2c(N)ncnc21)OCOC(=O)OC(C)C,EC50,-,p24,RT-L74V,MT-2,74V (ddI- ddC-resistant RT L74V),0.02 µM
Cc1occc1C(=S)Nc1ccc(Cl)c(/C=N/OC(C)(C)C)c1,EC50,-,cytopathic effect / XTT,RT-K103N Y181C,CEM + CEM-SS,Pyridinone-resistant (RT Y181C K103N),>100 µM
CC(C)CN(C[C@@H](O)[C@H](Cc1ccccc1)NC(=O)O[C@H]1CCOC1)S(=O)(=O)c1ccc(N)cc1,EC50,-,p24,PR-N88D,MT-4,NL4-3,<0.02 µM
Cc1cn([C@H]2C[C@H](N=[N+]=[N-])[C@@H](CO)O2)c(=O)[nH]c1=O,EC50,-,cytopathic effect / XTT,RT-A98G,CEM + CEM-SS,NL4-3,0.01 µM
Nc1ccn([C@@H]2CS[C@H](CO)O2)c(=O)n1,EC90,-,p24 / ELISA,A62V V75I F77L F116Y Q151M,Primary T lymphocytes,-,2.7 µM
CCC[C@@]1(CCc2ccccc2)CC(O)=C([C@H](CC)c2cccc(NS(=O)(=O)c3ccc(C(F)(F)F)cn3)c2)C(=O)O1,EC90,-,p24,-,PBMC,458 clinical isolates delavirdine-resistant,0.04 µM
Cc1cn([C@H]2C[C@H](N=[N+]=[N-])[C@@H](CO)O2)c(=O)[nH]c1=O,EC50,-,p24,-,-,CC8 Clinical isolates,0.003 µM
Nc1ncnc2c1ncn2[C@@H]1O[C@H](CO)C[C@@H]1F,EC50,-,p24,RT-P119S L214F,MT-2,RT P119S L214F,14 µM
Cc1ccnc2c1NC(=O)c1cccnc1N2C1CC1,EC50,-,-,RT-K70R K103N,MT-4,-,<3 µM
CCCc1cc(=O)oc2c3c(c4c(c12)OC(C)(C)C=C4)O[C@H](C)[C@@H](C)[C@@H]3O,EC50,-,XTT,RT-M184V,CEM + CEM-SS,3TC-resistant (RT M184V),0.3 µM
CCn1nc(Cc2ccc(OC)cc2)cc1C1CCN(C[C@H]2CN([C@@H](C(=O)O)C(C)(C)C)C[C@@H]2c2cccc(F)c2)CC1,EC50,50% human serum,β-galactosidase,-,HeLa,BaL,<0.033 µM
Cc1ccnc2c1NC(=O)c1cccnc1N2C1CC1,EC50,-,XTT,RT-T139I,CEM + CEM-SS,NL4-3,0.002 µM
Nc1nc(=O)n([C@@H]2CS[C@H](CO)O2)cc1F,EC90,-,p24 / ELISA,A62V V75I F77L F116Y Q151M,Primary T lymphocytes,-,2.1 µM
CN1N=C(N)c2cn([C@@H]3O[C@H](COP(=O)(O)O)[C@@H](O)[C@H]3O)c3ncnc1c23,EC50,-,XTT,-,CEM + CEM-SS,MN,0.02 µM
CCOc1cccc(Cc2cc(C3CCN(C[C@H]4CN([C@@H](C(=O)O)C(C)(C)C)C[C@@H]4c4cccc(F)c4)CC3)n(CC)n2)c1,EC90,-,β-galactosidase,-,HeLa,BaL,<0.00014 µM
Cc1cn([C@H]2C=C[C@@H](CO)O2)c(=O)[nH]c1=O,EC90,-,p24 / ELISA,M184V,Primary T lymphocytes,-,2.6 µM
N#Cc1cc2[nH]c3ccccc3c2n(-c2ccc([N+](=O)[O-])cc2)c1=O,EC50,-,luciferase,RT-M41L S68N G112S M184V,HeLa,Recombinant,1.82 µM
O=C(Nc1cc(S(=O)(=O)O)cc2cc(S(=O)(=O)O)c(N=Nc3ccc(N=Nc4c(S(=O)(=O)O)cc5cc(S(=O)(=O)O)cc(NC(=O)c6cccc(Cl)c6Cl)c5c4O)cc3)c(O)c12)c1ccc(Cl)cc1Cl,EC50,-,-,-,PBMC,A018A,1.26–1.58 µg/mL
CCCc1cc(=O)oc2c3c(c4c(c12)OC(C)(C)C=C4)O[C@@H](C)[C@H](C)[C@@H]3O,EC50,-,cytopathic effect / XTT,RT-Y181C,CEM + CEM-SS,UC82-R (RT-Y181C),0.1 µM
Cc1cn([C@H]2C[C@H](N=[N+]=[N-])[C@@H](CO)O2)c(=O)[nH]c1=O,EC50,-,luciferase,RT-M41L V118I M184V,HeLa,Recombinant,0.024 µM
CCn1nc(Cc2ccc(C#N)cc2)cc1C1CCN(C[C@H]2CN([C@@H](C(=O)O)C3CCCCC3)C[C@@H]2c2cccc(F)c2)CC1,EC50,-,β-galactosidase,-,HeLa,BaL,<0.0004 µM
CC(C)CN(C[C@@H](O)[C@H](Cc1ccccc1)NC(=O)O[C@H]1CCOC1)S(=O)(=O)c1ccc(N)cc1,EC50,-,p24 / ELISA,R41K,MT-2,IIIB,0.0473 µM
CC(C)=CCN1Cc2cc(Cl)cc3[nH]c(=S)n(c23)C[C@@H]1C,EC50,-,-,RT-A98G V106I Y181C,PBMC,BCF02,>6.25 µM
CC(C)CN(C[C@@H](O)[C@H](Cc1ccccc1)NC(=O)[C@H](CC(N)=O)NC(=O)c1ccc2ccccc2n1)C(=O)NC(C)(C)C,EC50,-,p24,PR-I84V,MT-4,NL4-3,<0.4 µM
CC[C@H](C)[C@H](C(=O)O)N1C[C@H](CN2CCC(c3cc(Cc4ccc(S(=O)(=O)c5ccccc5)cc4)nn3CC)CC2)[C@@H](c2cccc(F)c2)C1,EC90,50% human serum,β-galactosidase,-,HeLa,BaL,0.011 µM
O=c1[nH]cnc2c1ncn2[C@H]1CC[C@@H](CO)O1,EC50,-,p24,-,PBMC,8848 CLADE C CLADE C,0.141 µM
Cc1cc(C#Cc2ccc(C(F)(F)F)cc2)cc(C)c1Oc1ccnc(Nc2ccc(C#N)cc2)n1,EC50,-,MTT,-,MT-4,IIIB,0.224 µM
CC(C)(C)NC(=O)[C@@H]1C[C@@H]2CCCC[C@@H]2CN1C[C@@H](O)[C@H](Cc1ccccc1)NC(=O)[C@H](CC(N)=O)NC(=O)c1ccc2ccccc2n1,EC50,-,virus yield,-,HUT-78/IIIB/LAI + HUT 78,IIIB/LAI,0.3 µM
C[C@@H](Cn1cnc2c(N)nc(N)nc21)OCP(=O)(O)O,EC50,-,syncytia,-,CEM,HE,25 µM
Cc1ccc(NC(=O)Nc2ccc(-c3ccc(NC(=O)Nc4ccc(-c5ccc(NC(=O)Nc6ccc(-c7ccc(NC(=O)Nc8ccc(-c9ccc(NC(=O)Nc%10ccc(C)cc%10)cc9S(=O)(=O)O)c(S(=O)(=O)O)c8)cc7S(=O)(=O)O)c(S(=O)(=O)O)c6)cc5S(=O)(=O)O)c(S(=O)(=O)O)c4)cc3S(=O)(=O)O)c(S(=O)(=O)O)c2)cc1,EC50,-,p24,-,JM,GB8,1.9 µM
CCc1c(C(=O)c2cc(C)cc(C)c2)n(CC2CC=CC2)c(=O)[nH]c1=O,EC50,-,cytopathic effect / XTT,RT-L74V,CEM + CEM-SS,NL4-3,0.0002 µM
COC(=O)N[C@H](C(=O)N[C@@H](Cc1ccccc1)[C@@H](O)CN(Cc1ccc(-c2ccccn2)cc1)NC(=O)[C@@H](NC(=O)OC)C(C)(C)C)C(C)(C)C,EC50,-,p24 / ELISA,K112M K113E V128I M200I H219P,MT-2,IIIB,0.0032 µM
Cc1cn([C@H]2C[C@H](N=[N+]=[N-])[C@@H](CO)O2)c(=O)[nH]c1=O,EC50,-,XTT,RT-Y181C,CEM + CEM-SS,NL4-3,0.01 µM
Cc1cn([C@H]2C[C@H](N=[N+]=[N-])[C@@H](CO)O2)c(=O)[nH]c1=O,EC50,-,single cycle / fluorescence,M184V,PBMC,Clinical isolate,0.00263 µM
Cc1cn([C@H]2C[C@H](N=[N+]=[N-])[C@@H](CO)O2)c(=O)[nH]c1=O,EC50,-,p24,-,MT-4,IIIB)(ddC,0.04 µM

Repeating the final 4 entries:

smiles,read-out,conditions,read by,changes,cells,strain or isolate,result
COC(=O)N[C@H](C(=O)N[C@@H](Cc1ccccc1)[C@@H](O)CN(Cc1ccc(-c2ccccn2)cc1)NC(=O)[C@@H](NC(=O)OC)C(C)(C)C)C(C)(C)C,EC50,-,p24 / ELISA,K112M K113E V128I M200I H219P,MT-2,IIIB,0.0032 µM
Cc1cn([C@H]2C[C@H](N=[N+]=[N-])[C@@H](CO)O2)c(=O)[nH]c1=O,EC50,-,XTT,RT-Y181C,CEM + CEM-SS,NL4-3,0.01 µM
Cc1cn([C@H]2C[C@H](N=[N+]=[N-])[C@@H](CO)O2)c(=O)[nH]c1=O,EC50,-,single cycle / fluorescence,M184V,PBMC,Clinical isolate,0.00263 µM
Cc1cn([C@H]2C[C@H](N=[N+]=[N-])[C@@H](CO)O2)c(=O)[nH]c1=O,EC50,-,p24,-,MT-4,IIIB)(ddC,0.04 µM